According to patent US11389455B2, “Inhibitors of HIV-1 integrase multimerization” (Institute for Cancer Research, priority 2017, dated 2022):

Tested on: HeLa cells
Conditions: LD50 vs concerted integration IC50

Compound | separation (window) between inhibition of concerted integration and toxicity [fold]
CCc1ccc(-c2nc3c(=O)n(C)c(=O)nc-3n(CC)n2)cc1 [Formula I-13] | 10
O=C(CCCCCNc1ccc([N+](=O)[O-])c2nonc12)ON1C(=O)CCC1=O [II-4] | ~10
